The target of the assay is Beta-lactamase TEM (Escherichia coli) (UniProt P62593).

By UniProt entry, the sequences of proteins in these tests, tags left out.
UniProt P62593, whole entry: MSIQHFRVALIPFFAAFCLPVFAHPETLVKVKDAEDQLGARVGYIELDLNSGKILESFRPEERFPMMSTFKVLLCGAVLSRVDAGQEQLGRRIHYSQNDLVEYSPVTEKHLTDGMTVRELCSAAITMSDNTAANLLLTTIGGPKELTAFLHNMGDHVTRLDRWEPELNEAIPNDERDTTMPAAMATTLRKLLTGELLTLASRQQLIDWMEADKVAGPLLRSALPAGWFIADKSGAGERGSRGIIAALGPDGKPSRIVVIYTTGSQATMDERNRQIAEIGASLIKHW

In turn, `CC1(C)S[C@@H]2[C@H](NC(=O)[C@H](N)c3ccc(O)cc3)C(=O)N2[C@H]1C(=O)O` came in with an MIC of over 256 µg/mL.

For the origin of these results see ChEMBL document CHEMBL1127929, “The synthesis and serine -lactamase inhibitory activity of some phosphonamidate analogues of dipeptides” (1994).
